Compound potency records, mixed from different reports. Data source: NIAID ChemDB in PubChem.

Common to all: growth or infection tests; organism: Aspergillus niger

An empty or dashed field is not shown. Lines come from different laboratories, so protocols vary. Zone: diameter of growth inhibition. Two numbers with a dash give a range or band. MIC50, MIC90 and the like: level of inhibition, or share of isolates inhibited.

Cc1nc(Nc2ccccc2)nc2c1C(=N)C(C#N)CN(Cc1ccccc1)C2 ; endpoint: zone ; tested at: 100 µg/mL ; value: 1.33 mm
CCC(C)CC(C)CCCCCCCCC(=O)N[C@H]1C[C@@H](O)[C@H](NCCN)NC(=O)[C@@H]2[C@@H](O)CCN2C(=O)[C@H]([C@H](O)CCN)NC(=O)[C@H]([C@H](O)[C@@H](O)c2ccc(O)cc2)NC(=O)[C@@H]2C[C@@H](O)CN2C(=O)[C@H]([C@@H](C)O)NC1=O ; endpoint: MIC50 ; value: 0.06–0.25 µg/mL
CCOC(=O)Cn1nnc(Cn2cc(C(C)=O)c3ccccc32)n1 ; read by: agar ; endpoint: MIC99 ; value: 110 µg/mL
Cc1cc(C)nc(Nc2ccccc2)n1 ; endpoint: zone ; tested at: 10 µg/mL ; value: 2.6 mm
CC[C@@H]([C@H](C)O)n1ncn(-c2ccc(N3CCN(c4ccc(OC[C@@H]5CO[C@@](Cn6cncn6)(c6ccc(F)cc6F)C5)cc4)CC3)cc2)c1=O ; endpoint: MIC90 ; value: 0.5–1 µg/mL
Cc1nc(Nc2ccccc2)nc(C)c1Br ; endpoint: zone ; tested at: 50 µg/mL ; value: 2.1 mm
C[C@H]1[C@H](O)[C@@H](C)/C=C/C=C/C=C/C=C/C=C/C=C/C=C/[C@H](O[C@@H]2O[C@H](C)[C@@H](O)[C@H](N)[C@@H]2O)C[C@@H]2O[C@](O)(C[C@@H](O)C[C@@H](O)CC[C@H](O)[C@@H](O)C[C@@H](O)CC(=O)O[C@H]1C)C[C@H](O)[C@H]2C(=O)O ; endpoint: MIC90 ; value: 0.5–2 µg/mL
OC(Cn1cncn1)(Cn1cncn1)c1ccc(F)cc1F ; read by: broth dilution ; strain: CCAM 080002 ; endpoint: MIC100 ; value: 1.25 µg/mL
CC(=O)c1cn(Cc2nnn(CC(=O)NN)n2)c2ccccc12 ; read by: agar ; endpoint: MIC99 ; value: 140 µg/mL
COc1cc(/C=C2\SC(N(C)C)=NC2=O)cc(OC)c1OC ; read by: broth dilution ; strain: ATCC 9029 ; endpoint: MIC100 ; value: >250 µg/mL
CCC(C)n1ncn(-c2ccc(N3CCN(c4ccc(OC[C@H]5CO[C@](Cn6cncn6)(c6ccc(Cl)cc6Cl)O5)cc4)CC3)cc2)c1=O ; endpoint: MIC90 ; value: 2 µg/mL
CN(C)C1=NC(=O)/C(=C/c2ccc(F)cc2)S1 ; read by: broth dilution ; strain: ATCC 9029 ; endpoint: MIC100 ; value: >250 µg/mL
CCCCCOc1ccc(-c2cc(-c3ccc(C(=O)N[C@H]4C[C@@H](O)[C@@H](O)NC(=O)[C@@H]5[C@@H](O)[C@@H](C)CN5C(=O)[C@H]([C@H](O)CC(N)=O)NC(=O)[C@H]([C@H](O)[C@@H](O)c5ccc(O)c(OS(=O)(=O)O)c5)NC(=O)[C@@H]5C[C@@H](O)CN5C(=O)[C@H]([C@@H](C)O)NC4=O)cc3)no2)cc1 ; endpoint: MIC90 ; value: 0.015 µg/mL
CN(C/C=C/C#CC(C)(C)C)Cc1cccc2ccccc12 ; read by: broth dilution ; strain: ATCC 9029 ; endpoint: MIC100 ; value: 1.56 µg/mL
O=C/C=C/c1ccccc1 ; read by: broth dilution ; strain: IOA-3 ; endpoint: MFC ; value: 160 µg/mL

For reference, 2 entries again:

| compound | read by | strain | endpoint | tested at | value |
|---|---|---|---|---|---|
| O=C/C=C/c1ccccc1 | broth dilution | IOA-3 | MFC |  | 160 µg/mL |
| Cc1nc(Nc2ccccc2)nc(C)c1Br |  |  | zone | 50 µg/mL | 2.1 mm |